From patent US11723968, “Stabilized recombinant hantaviral spike proteins comprising mutations in Gc” (dated 2023)

Key:
[1] = system: Andes virus glycoprotein Gn, wild type, Andes virus (Andes orthohantavirus CHI-7913 isolate)
[2] = system: Andes virus Gc mutant T734C, Andes virus
[3] = system: Andes virus Gc mutant V776C, Andes virus

Row | Substance | melting temperature (Tm) of the temperature-induced Gn/Gc dissociation [1] | other results
1 | Andes virus Gc mutant D679S | 34.5 ° c. | –
2 | Andes virus Gc mutant E677Q | 35 ° c. | –
3 | Andes virus Gc mutant G838C | 48 ° c. | –
4 | Andes virus Gc mutant R951Q | 32.3 ° c. | –
5 | Andes virus Gn mutant H294C | – | melting temperature (Tm) of the temperature-induced Gn/Gc dissociation [2]: 79.1 ° c.
6 | Andes virus Gn mutant N94C | – | melting temperature (Tm) of the temperature-induced Gn/Gc dissociation [3]: 60.4 ° c.
